Results deposited as PubChem BioAssay AID624099 (ICCB-Longwood, 2012)

Test: 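Host factors E2 relies on to silence an HPV18 LCR reporter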 (primary screen)
System: human C33A cervical carcinoma cells (HPV-negative) stably expressing BPV1 E2 and an HPV18 LCR luciferase reporter
Knock-down reagent: siRNA pool against human genes, 40 nM
Duration: 72 h
Measured: 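HPV18 LCR reporter light per well, converted to plate-wise z-scores that exclude control wells, and averaged over triplicate plates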
Reading the numbers: mean z-score and z-score: higher = stronger reporter signal, weaker E2 silencing
Rule for the call: 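Mean z ≥ 2 together with z ≥ 2 in two or more of the three replicates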
In all, the deposit lists about 21,000 reagents; this is a part drawn at random. 497 of all reagents (2.4%) were called active. 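Higher z means weaker E2 silencing; only reporter increases were scored, and knock-downs that hurt cell survival may mask genuine repressor factors.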 Reagents against one gene are numbered here.

| target gene | reagent no. | mean z-score | z-score, replicate A | z-score, replicate B | z-score, replicate C | Call |
| --- | --- | --- | --- | --- | --- | --- |
| SMPD4BP | 1 | 0.81 | 0.75 | 0.52 | 1.16 | inactive |
| PROC | 1 | 0.66 | 0.47 | 0.9 | 0.62 | inactive |
| ZNF615 | 1 | 0.06 | -0.18 | 0.38 | -0.02 | inactive |
| NHLH1 | 1 | 1.59 | 1.37 | 1.32 | 2.06 | inactive |
| RPS10P29 | 1 | -0.25 | -0.48 | -0.26 | -0.01 | inactive |
| ARHGAP6 | 1 | -1.18 | -1.16 | -1.26 | -1.11 | inactive |
| DIPK2A | 1 | 0.52 | 0.31 | 0.73 | – | inactive |
| FKBPL | 1 | -0.51 | 0.37 | -0.72 | -1.18 | inactive |
| MUC3B | 1 | -0.12 | -0.06 | -0.23 | -0.06 | inactive |
| MUC3B | 2 | 0.39 | 0.78 | 0.62 | -0.23 | inactive |
| PPA2 | 1 | -0.58 | -0.04 | -0.53 | -1.16 | inactive |
| C1orf54 | 1 | 0.76 | 0.84 | 0.78 | 0.64 | inactive |
| EEPD1 | 1 | -0.35 | -0.34 | -0.37 | -0.33 | inactive |
| BMP4 | 1 | -0.36 | -0.51 | -0.21 | -0.37 | inactive |
| CYP4B1 | 1 | 0.84 | 0.97 | 0.95 | 0.61 | inactive |
| YEATS4 | 1 | 2.54 | 2.38 | 2.66 | 2.58 | active |
| OR4Q3 | 1 | -0.69 | -0.43 | -0.67 | -0.99 | inactive |
| BICD1 | 1 | 0.69 | 0.8 | 0.53 | 0.75 | inactive |
| LINC00997 | 1 | -0.97 | -0.71 | -1.17 | -1.02 | inactive |
| LINC00997 | 2 | -0.76 | -0.83 | -0.45 | -1.02 | inactive |
| ACSM5 | 1 | 0.63 | 0.69 | 0.87 | 0.32 | inactive |
| SLC22A4 | 1 | 0.19 | 0.33 | 0.17 | 0.07 | inactive |
| TEX15 | 1 | 0.97 | 0.91 | 0.93 | 1.07 | inactive |
| SLC37A2 | 1 | 0.26 | 0.24 | 0.38 | 0.14 | inactive |
| NUDT21 | 1 | 1.22 | 1.26 | 1.18 | 1.21 | inactive |
| SLC6A11 | 1 | 0.35 | 0.51 | 0.09 | 0.46 | inactive |
| PDCD4 | 1 | -0.36 | -0.15 | -0.53 | -0.4 | inactive |
| DDX39A | 1 | 1.57 | 1.44 | 1.7 | 1.56 | inactive |
| NBR2 | 1 | 0.62 | 0.68 | 0.41 | 0.78 | inactive |
| OR3A3 | 1 | -0.11 | -0.2 | 0 | -0.14 | inactive |
| KLK11 | 1 | -0.4 | -0.42 | -0.44 | -0.32 | inactive |
| PNO1 | 1 | 0.3 | 0.35 | 0.43 | 0.12 | inactive |
| HGS | 1 | -0.85 | -0.92 | -0.96 | -0.67 | inactive |
| EXOSC8 | 1 | 0.6 | 0.66 | 0.8 | 0.34 | inactive |
| LOC389173 (retired record) | 1 | 1.9 | 2.42 | 1.45 | 1.85 | inactive |
| GRIN2C | 1 | 2.7 | 2.75 | 2.6 | 2.76 | active |
| PPP3CA | 1 | -1.03 | -0.92 | -1.11 | -1.06 | inactive |
| C19orf12 | 1 | -0.08 | -0.14 | -0.01 | -0.09 | inactive |
| LOC440746 (retired record) | 1 | 0.7 | 0.86 | 0.77 | 0.47 | inactive |

An excerpt from above, reduced to “z-score, replicate A”:
DDX39A	1.44
NBR2	0.68
OR3A3	-0.2
KLK11	-0.42
PNO1	0.35
HGS	-0.92
